{"source": "PubChem BioAssay AID624099 | ICCB-Longwood | 2012", "aim": "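Human genes that papillomavirus E2 requires to repress the HPV18 LCR promoter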 (primary screen)", "cell system": "human C33A cervical carcinoma cells (HPV-negative) stably expressing BPV1 E2 and an HPV18 LCR luciferase reporter", "reagents": "siRNA pool against human genes, 40 nM", "timing": "72 h", "measurement": "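Per-well luciferase luminescence, z-scored on each plate against the plate mean and SD with control wells left out, then averaged across three replicate plates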", "direction": "mean z-score and z-score: higher = stronger reporter signal, weaker E2 silencing", "call rule": "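Mean z ≥ 2 together with z ≥ 2 in two or more of the three replicates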", "note": "The deposit covers about 21,000 reagents; below is a random part of them. Of all reagents, 497 (2.4%) are marked active. 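Higher z means weaker E2 silencing; only reporter increases were scored, and knock-downs that hurt cell survival may mask genuine repressor factors.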"}
{"Gene":"RPL39","mean z-score":-0.59,"z-score, replicate A":-0.64,"z-score, replicate B":-0.64,"z-score, replicate C":-0.5,"activity call":"inactive"}
{"Gene":"LOC147942 (retired record)","mean z-score":0.15,"z-score, replicate A":0.07,"z-score, replicate B":0.35,"z-score, replicate C":0.03,"activity call":"inactive"}
{"Gene":"OR8U1","mean z-score":0.34,"z-score, replicate A":0.81,"z-score, replicate B":0.32,"z-score, replicate C":-0.1,"activity call":"inactive"}
{"Gene":"BRME1","mean z-score":0.05,"z-score, replicate A":0.06,"z-score, replicate B":0.24,"z-score, replicate C":-0.14,"activity call":"inactive"}
{"Gene":"NR6A1","mean z-score":0.35,"z-score, replicate A":0.43,"z-score, replicate B":0.39,"z-score, replicate C":0.25,"activity call":"inactive"}
{"Gene":"GMCL2","mean z-score":-0.95,"z-score, replicate A":-0.74,"z-score, replicate B":-1.2,"z-score, replicate C":-0.92,"activity call":"inactive"}
{"Gene":"TLL2","mean z-score":1.52,"z-score, replicate A":1.63,"z-score, replicate B":1.63,"z-score, replicate C":1.3,"activity call":"inactive"}
{"Gene":"LOC401599 (retired record)","mean z-score":0.32,"z-score, replicate A":0.71,"z-score, replicate B":-0.08,"z-score, replicate C":0.33,"activity call":"inactive"}
{"Gene":"TNP1","mean z-score":1.14,"z-score, replicate A":1.16,"z-score, replicate B":1.15,"z-score, replicate C":1.1,"activity call":"inactive"}
{"Gene":"ZNF317","mean z-score":-1.21,"z-score, replicate A":-1.08,"z-score, replicate B":-1.09,"z-score, replicate C":-1.46,"activity call":"inactive"}
{"Gene":"ERAP2","mean z-score":4.3,"z-score, replicate A":4.19,"z-score, replicate B":4.26,"z-score, replicate C":4.44,"activity call":"active"}
{"Gene":"FZD8","mean z-score":-1.2,"z-score, replicate A":-0.9,"z-score, replicate B":-1.62,"z-score, replicate C":-1.09,"activity call":"inactive"}
{"Gene":"SCNM1","mean z-score":0.96,"z-score, replicate A":1.25,"z-score, replicate B":0.72,"z-score, replicate C":0.92,"activity call":"inactive"}
{"Gene":"FCN1","mean z-score":1.05,"z-score, replicate A":0.85,"z-score, replicate B":1.39,"z-score, replicate C":0.91,"activity call":"inactive"}
{"Gene":"TPRG1L","mean z-score":-0.82,"z-score, replicate A":-0.73,"z-score, replicate B":-1.1,"z-score, replicate C":-0.62,"activity call":"inactive"}
{"Gene":"PPP1R3D","mean z-score":-0.04,"z-score, replicate A":0.01,"z-score, replicate B":-0.01,"z-score, replicate C":-0.13,"activity call":"inactive"}

Reagents listed so far called active, once more:
{"Gene":"ERAP2","mean z-score":4.3,"z-score, replicate A":4.19,"z-score, replicate B":4.26,"z-score, replicate C":4.44,"activity call":"active"}

Next records follow.
{"Gene":"AIMP2","mean z-score":0.78,"z-score, replicate A":0.73,"z-score, replicate B":1.04,"z-score, replicate C":0.58,"activity call":"inactive"}
{"Gene":"DOCK1","mean z-score":0.75,"z-score, replicate A":0.73,"z-score, replicate B":0.89,"z-score, replicate C":0.62,"activity call":"inactive"}
{"Gene":"GRIK5","mean z-score":0.03,"z-score, replicate A":-0.13,"z-score, replicate B":0.06,"z-score, replicate C":0.16,"activity call":"inactive"}
{"Gene":"ZNF784","mean z-score":-0.3,"z-score, replicate A":-0.62,"z-score, replicate B":0.09,"z-score, replicate C":-0.37,"activity call":"inactive"}
{"Gene":"MYMK","mean z-score":0.05,"z-score, replicate A":-0.02,"z-score, replicate B":0.09,"z-score, replicate C":0.07,"activity call":"inactive"}
{"Gene":"ELF2","mean z-score":0.05,"z-score, replicate A":0.01,"z-score, replicate B":-0.11,"z-score, replicate C":0.26,"activity call":"inactive"}
{"Gene":"LIN7C","mean z-score":1.22,"z-score, replicate A":1.27,"z-score, replicate B":0.99,"z-score, replicate C":1.41,"activity call":"inactive"}
{"Gene":"NOSIP","mean z-score":0.72,"z-score, replicate A":0.69,"z-score, replicate B":0.45,"z-score, replicate C":1.03,"activity call":"inactive"}
{"Gene":"CCDC190","mean z-score":-0.11,"z-score, replicate A":-0.39,"z-score, replicate B":-0.02,"z-score, replicate C":0.07,"activity call":"inactive"}
{"Gene":"CCL18","mean z-score":0.37,"z-score, replicate A":0.23,"z-score, replicate B":0.43,"z-score, replicate C":0.44,"activity call":"inactive"}
{"Gene":"CATSPERE","mean z-score":-0.31,"z-score, replicate A":-0.07,"z-score, replicate B":0.01,"z-score, replicate C":-0.88,"activity call":"inactive"}
